The results in this text go back to paper PMC8279406 (Journal of Medicinal Chemistry, 2021).

The nature of the series: general procedure: Fmoc solid-phase peptide synthesis; Rink Amide AM-PS resin (0.55 mmol/g); HBTU/HOBt/DIPEA; PyAOP/HOAt/DIPEA for cyclization. The following applies: whole synthesis, side-chain lactam ring; for crude yield: scale of the general procedure 136 mg, 0.75 mmol.

[(NMe)Arg-Gly-Asp-Chg-Glu]CONH2: the crude yield amounted to 42% and the crude mass was determined as 23 mg.

[Arg-(NMe)Gly-Asp-Chg-Glu]CONH2 had a crude yield of 65% and a crude mass of 35 mg.

Take [Arg-Gly-(NMe)Asp-Chg-Glu]CONH2: the crude yield is 51% and the crude mass is 28 mg.

[Arg-Gly-Asp-(NMe)Chg-Glu]CONH2 displayed a crude yield of 53% and a crude mass of 29 mg.

With [Arg-Gly-Asp-Chg-(NMe)Glu]CONH2, the crude yield amounted to 49% and the crude mass is on record as 28 mg.
